The results in this text go back to PMC11139879, “Structural insights into the DNA topoisomerase II of the African swine fever virus” (2023).

The test addresses African swine fever virus type II topoisomerase pP1192R, full-length (African swine fever virus) (UniProt Q00942). The experiment in a line: cryo-EM structure.

Turning to “African swine fever virus type II topoisomerase pP1192R, full-length (from UniProt Q00942 1-1192) (enzyme)”, the stoichiometry N amounted to 2.
